Molecules are shown by their SMILES.

The test system of this data set is red blood cells (RBCs) of mice. As to the kind of experiment: Hemolytic assay. In kind it is cell-based. As to conditions: selectivity index, MRSA MIC vs hemolytic activity. How it is done:
Fresh red blood cells (RBCs) of mice were washed with 1×PBS buffer and centrifuged 10 min at 3500 rpm for 3 times until the supernatant was clear, then RBCs were diluted into 5% v/v suspension in 1×PBS. 50 μL compounds in PBS were 2-fold serially diluted in a 96-well plate, and incubated with 50 μL RBCs suspension for 1 h at 37° C. The mixture was then centrifuged for 10 min at 3500 rpm. Subsequently, 30 μL of the supernatant was added to 100 μL PBS, then the absorbance of mixture was read on a Biotek Synergy HT plate reader at 540 nm. The hemolytic activity was calculated by the formula % hemolysis=(Abssample−AbsPBS)/(AbsTriton−AbsPBS)×100%. 1% Triton X-100 were used as the positive control and 1×PBS buffer was used as the negative control.
As to `CCCCCCCCCCCCCC(=O)N[C@@H](CCCCN)CN1CC(=O)N(CC)C1=O` [Compound 3, (S)—N-(6-amino-1-(3-ethyl-2,4-dioxoimidazolidin-1-yl)hexan-2-yl)tetradecanamide], the “SI (HC50/MIC)” value is recorded as 14.4.

Turning to `CCCCCCCCCCCC(=O)N[C@@H](CCCCN)CN1CC(=O)N(CCCC)C1=O` [Compound 6, (S)—N-(6-amino-1-(3-butyl-2,4-dioxoimidazolidin-1-yl)hexan-2-yl)dodecanamide], the “SI (HC50/MIC)” value amounted to 6.4.

For `CCCCCCCCCCCC(=O)N[C@@H](CCCCN)CN1CC(=O)N(C2CCCCC2)C1=O` [Compound 10, (S)—N-(6-amino-1-(3-cyclohexyl-2,4-dioxoimidazolidin-1-yl)hexan-2-yl)dodecanamide], the “SI (HC50/MIC)” value turned out to be 16.

As to `CCCCCCCCCC(=O)N[C@@H](CCCCN)CN1CC(=O)N(C23CC4CC(CC(C4)C2)C3)C1=O` [Compound 13, N—((S)-1-(3-((3R,5R,7R)-adamantan-1-yl)-2,4-dioxoimidazolidin-1-yl)-6-aminohexan-2-yl) decanamide], the “SI (HC50/MIC)” value turned out to be 20.

Take `CCCCCCCCCCCC(=O)N[C@@H](CCCCN)CN1CC(=O)N(c2ccc(OC)cc2)C1=O` [Compound 18, (S)—N-(6-amino-1-(3-(4-methoxyphenyl)-2,4-dioxoimidazolidin-1-yl)hexan-2-yl)dodecan amide]: the “SI (HC50/MIC)” value was determined as 8.

For the compound `CCCCCCCCCC(=O)N[C@@H](CCCCN)CN1CC(=O)N(c2cccc(Cl)c2)C1=O` [Compound 21, (S)—N-(6-amino-1-(3-(3-chlorophenyl)-2,4-dioxoimidazolidin-1-yl)hexan-2-yl)decanamide], the “SI (HC50/MIC)” value is given as 16.

For the origin of these results see patent US10793526B2, “Hydantoin derivative compounds, methods of use and methods of treatment” (University of South Florida, priority 2016, dated 2020).
